Measurements reported in patent publication US12508251B2, “CD4 mimic compound with anti-HIV activity” (NATIONAL UNIVERSITY CORPORATION KUMAMOTO UNIVERSITY, priority 2019, dated 2025).

System: HIV isolate (KP5mvcR)
Type: cell-based, HIV-1
Settings: CC50/IC50, TZM-bl cells, KP-5mvcR
From the text: In this Example, TZM-bl cells (available from NIH AIDS Reagent Program (https://www.aidsreagent.org/Index.cfm)) were used for individual evaluations. TZM-bl cells have CD4/CCR5/CXCR4 on the surface and express luciferase when infected with HIV. In this manner, TZM-bl cells serve as indicator cells. In the cells, β-galactosidase gene linked to HIV-1 LTR sequence is integrated. When the cells are infected with HIV-1, the tat gene of HIV-1 expresses a transcriptional activator Tat, which acts on the promoter region of LTR to express β-galactosidase. When a substrate is added, enzymatic cleavage occurs to produce galactose and luciferin. Luciferin is oxidized by luciferase to generate chemiluminescence, which can be detected by a luminometer to determine the number of cells infected with HIV-1.
2) IC50 (Calculation of Anti-HIV Activity)
After each compound was serially diluted, TZM-bl cells (1×10^4) and 100TCID50 of HIV isolate (KP5mvcR) were added, and then, cultured for 48 hours. Thereafter, the cells were collected and a Luc reporter reagent was added. The amount of luminescence was measured to calculate the inhibition rate of infection (IC50). […]

SMILES: COCCOCCOCCOCCOCCOCCOCCOCCOCCOCCOCCOCCOCCOCCOCCOCCOCCOCCOCCOCCOCCOCCOCCOCCNC(=O)CCC(=O)N[C@@H](CCCNC(=N)N)C(=O)NCCN1CCC(NC(=O)C(=O)Nc2ccc(Cl)cc2)CC12CCCCC2 (some centres unmarked) [TKB-003]
- SI (selectivity index): >400

SMILES: CC1(C)CC(NC(=O)C(=O)Nc2ccc(Cl)cc2)CC(C)(C)N1 [NBD-556, reference compound]
- SI (selectivity index): 656
